Pooled drug test results. Numbers come from NIAID ChemDB, via PubChem.

All rows: whole-cell or culture tests; agent: Mycobacterium tuberculosis

MIC50, MIC90 and the like: level of inhibition, or share of isolates inhibited.

compound,read-out,strain or isolate,read by,dose,cells,result
CCOC(=O)Cc1csc(NC(=O)C(Cl)c2ccccc2)n1,MIC,H37Rv,-,-,-,>12.5 µg/mL
CCCSC1=C(C(=O)O)N2C(=O)[C@H]([C@@H](C)O)[C@H]2S1,MIC,-,broth dilution,-,-,0.5–1 µg/mL
Cc1onc(-c2ccccc2)c1C1=N/C(=C/c2ccc(N(C)C)cc2)C(=O)O1,MIC bound,H37Rv,resazurin,-,-,>6.25 µg/mL
CC1CCN(C(=O)c2ccc(NC(=O)C3CC(=O)OC34CCCCC4)cc2)CC1,MIC,18b,resazurin,-,-,16 µg/mL
CC12CC(=O)OC(C1)C(=O)c1ccccc12,MIC,H37Rv,BACTEC,-,-,≥12.5 µg/mL
O=C(CCC(F)(F)F)N1CC(c2ccc(F)cc2F)C1,EC50,H37Rv,fluorescence,-,THP-1,<0.05 µM
CC(C)CCC[C@@H](C)[C@H]1CC[C@H]2[C@]3(C)CC[C@H]4C[C@@H](CCC=C(c5cc(Cl)c(O)c(C(=O)O)c5)c5cc(Cl)c(O)c(C(=O)O)c5)CC[C@]4(C)[C@H]3CC[C@@]21C,inhibition,H37Rv,BACTEC,12.5 µg/mL,-,6%
Cc1cccc(OC/C(N)=N\NC(=O)c2ccncc2)c1,MIC90,16 isolates,-,-,-,12.5 µg/mL
CC(C)(C)OC(=O)N[C@@H](CO)C(=O)N/N=C/c1cccc(O)c1O,MIC,H37Rv,resazurin,-,-,>100 µg/mL
O=C(O)C1C2CC3OC(=O)C1C3C2,MIC,H37Rv,BACTEC,-,-,≥128 µg/mL
O=C(CCC(F)(F)F)N1CC(c2cc(Cl)ccn2)C1,EC50,H37Rv,fluorescence,-,THP-1,0.05–0.25 µM
CC(C)(C)OC(=O)N[C@@H](CO)C(=O)N/N=C/c1ccc(O)c(O)c1,MIC,H37Rv,resazurin,-,-,>100 µg/mL
O=C1c2ccc(Cl)cc2-n2c1nc1ccccc1c2=O,MIC,H37Rv,-,-,-,0.13 µg/mL
CC(N[C@H]1CS(=O)(=O)C[C@@H]1S(=O)(=O)c1ccc(F)cc1)c1ccccc1,MIC,18b,resazurin,-,-,16 µg/mL
COc1ccc(/C=N/NC(=O)[C@H](CO)NC(=O)OC(C)(C)C)cc1OC,MIC,H37Rv,resazurin,-,-,>100 µg/mL
O=c1c2ccccc2oc2cccc(NCCCN3CCN(CCCNc4cccc5oc6ccccc6c(=O)c45)CC3)c12,inhibition,H37Rv,BACTEC,12.5 µg/mL,-,18.32%
CCSC1=C(C(=O)O)N2C(=O)[C@H]([C@@H](C)O)[C@H]2S1,MIC,-,broth dilution,-,-,8–16 µg/mL
Cc1c(C(=O)O)c(O)c(-c2ccccc2)c(=O)n1-c1ccccc1,MIC,H37Ra,-,-,-,>256 µg/mL
Fc1ccc(NC(=S)SCc2ccc(Cl)c(Cl)c2)cc1,MIC bound,H37Rv,BACTEC,-,-,≤128 µg/mL
C[C@@H]1CN(c2c(F)c(N)c3c(=O)c(C(=O)O)cn(C4CC4)c3c2F)C[C@H](C)N1,MIC,-,-,-,-,>0.12 µg/mL
C=C1CC[C@@](C)(c2cc(Br)c(C)cc2O)[C@H]1C,MIC,H37Rv,-,-,-,16 µg/mL
CNC(=O)N1CCC(n2c(C)nc(C(=O)NC3CC3)c2C)CC1,MIC,Clinical isolate,resazurin,-,-,8 µg/mL
C=C1C[C@H]2OC2[C@]2(CC[C@@H]3C([C@@H](OC(C)=O)[C@H](C=C(C)C)OC(C)=O)=CC[C@H](OC(C)=O)[C@@H]13)CO2,MIC,H37Rv,-,-,-,>128 µg/mL
CC(C)(C)C1CCc2onc(C(=O)N3CCCCC3)c2C1,MIC,Clinical isolate,resazurin,-,-,16 µg/mL
Cc1cc(F)ccc1C1CN(C(=O)CCC(F)(F)F)C1,EC50,H37Rv,fluorescence,-,THP-1,0.05–0.25 µM
Cc1cc[n+](CC(=O)NN)cc1.[Cl-],inhibition,H37Rv,BACTEC,12.5 µg/mL,-,0%
O=C(CCC(F)(F)F)N1CC(c2cccc(F)c2)C1,EC50,H37Rv,fluorescence,-,THP-1,<0.05 µM
O=[N+]([O-])c1ccc2nc(-c3ccccc3-c3nnc(-c4cccc(Cl)c4)o3)[nH]c2c1,inhibition,H37Rv,-,12.5 µg/mL,-,79%
C=C1C[C@H](O)[C@H](Br)C(C)(C)[C@@]12CCC(C)=C(Cl)C2,MIC,H37Rv,-,-,-,32 µg/mL
Cc1occc1-c1nnc(SCC(=O)N(C)c2ccc(F)cc2)o1,MIC,18b,resazurin,-,-,16 µg/mL
N[C@@H](CCC(=O)N[C@@H](CS)C(=O)NCC(=O)O)C(=O)O,inhibition,H37Rv,BACTEC,12.5 µg/mL,-,9%
CCCCCCCCCC#CCCC#CC(=O)O,MIC,H37Rv,-,-,-,>300 µM
O=C(CCC(F)(F)F)N1CC(C2CC2)C1,EC50,H37Rv,fluorescence,-,THP-1,0.05–0.25 µM
CC[C@H]1OC(=O)[C@H](C)C(=O)[C@H](C)[C@@H](O[C@@H]2O[C@H](C)C[C@H](N(C)C)[C@H]2O)[C@](C)(OC)C[C@@H](C)C(=O)[C@H](C)[C@H]2N(CCCn3cnc4c3c(=O)n(C)c(=O)n4C)C(=O)O[C@]12C,MIC,-,-,-,-,>128 µM
Cc1cc(N)c(-c2ccccc2)c(=O)[nH]1,MIC,H37Ra,-,-,-,128 µg/mL
N#Cc1nc2cc(Cl)ccc2nc1N,MIC,H37Rv,-,-,-,>12.5 µg/mL
Cc1ccc(-c2c(O)cc(C)[nH]c2=O)cc1,MIC,H37Ra,-,-,-,>256 µg/mL
NC1N=C(c2ccc(Cl)cc2)C2=C(N1)c1ccccc1CC2,MIC bound,H37Rv,BACTEC,-,-,≤12.5 µg/mL
CCC#CCCCCCCCCN1C(=O)O[C@]2(C)[C@@H](CC)OC(=O)[C@H](C)C(=O)[C@H](C)[C@@H](O[C@@H]3O[C@H](C)C[C@H](N(C)C)[C@H]3O)[C@](C)(OC)C[C@@H](C)C(=O)[C@H](C)[C@@H]12,MIC,-,-,-,-,2.67 µM
O=C(c1cccs1)N(C(=S)N1CCN(c2ccccc2)CC1)c1ccccc1,MIC bound,H37Rv,resazurin,-,-,>6.25 µg/mL
CC1=CC[C@H](Br)C(C)(C)[C@]12CC[C@](C)(Cl)[C@@H](Br)C2,MIC,H37Rv,-,-,-,128 µg/mL
CCOc1ccc(S(=O)(=O)[C@H]2CS(=O)(=O)C[C@@H]2NC2CCCC2)cc1,MIC,Clinical isolate,resazurin,-,-,16 µg/mL
Cc1ccc(N=C(c2ccccc2)N(O)c2ccc(Cl)cc2)cc1Cl,inhibition,H37Rv,BACTEC,12.5 µg/mL,-,0%
Cc1ccccc1OC/C(N)=N\NC(=O)c1ccncc1,MIC,ATCC 35828 (pyrazinamide-resistant),-,-,-,25 µg/mL
CCC[N+]12CC=C3COC(=O)C(C)(O)C(C)(O)C(C)C(=O)OC(CC1)C32.[Br-],MIC,H37Rv,BACTEC,-,-,≥12.5 µg/mL
CC[C@H]1OC(=O)[C@H](C)C(=O)[C@H](C)[C@@H](O[C@@H]2O[C@H](C)C[C@H](N(C)C)[C@H]2O)[C@](C)(OC)C[C@@H](C)C(=O)[C@H](C)[C@H]2N(C/C=C/Cc3ccccc3)C(=O)O[C@]12C,MIC,-,-,-,-,1 µM
C=C(C)C(C)(C)CC[C@@H](C)C1CC[C@@]2(C)C3CC[C@@H]4C(C)(C)C(=O)CC[C@]4(C)C3=CC[C@]12C,MIC,H37Rv,-,-,-,64 µg/mL
O=C1c2ccccc2-n2c1nc1c(F)cccc1c2=O,MIC,H37Rv,-,-,-,0.13 µg/mL
CCCCCCC/C=C\CCCCCCCC(=O)O,MIC100,ATCC 35822 INHr,resazurin,-,-,>100 µg/mL
Cc1ccc(NCC(=O)NN)cc1F,MIC bound,H37Rv,BACTEC,-,-,>12.5 µg/mL
CC(C)(C)OC(=O)N[C@@H](CO)C(=O)N/N=C/c1ccccc1,MIC,H37Rv,resazurin,-,-,>100 µg/mL
CCOC(=O)Cc1csc(/N=C2/NC(=O)C(c3ccccc3)S2)n1,MIC,H37Rv,-,-,-,>12.5 µg/mL
CCOC(=O)c1ccc(N=C2C(=S)N(c3ccc(C(=O)OCC)cc3)C(=N)N2/N=C/c2ccccc2)cc1,MIC bound,H37Rv,BACTEC,-,-,>12.5 µg/mL
CS(=O)(=O)c1ccc2c(c1)C(=O)c1nc3ccncc3c(=O)n1-2,MIC,H37Rv,-,-,-,4 µg/mL
O=C(CCC(F)(F)F)N1CC(c2cc(C(F)(F)F)ccn2)C1,EC50,H37Rv,fluorescence,-,THP-1,0.25–0.5 µM
CCOC(=O)Cc1csc(NC(=O)CCl)n1,EC50,H37Rv,-,-,-,<12.5 µg/mL
CCCCCCCC/C=C/CCCCCCCC(=O)NNC(=O)c1ccncc1,MIC100,ATCC 35822 INHr,resazurin,-,-,6.25 µg/mL
CC(C)[C@@H]1C2[C@H](O)[C@]3(O)[C@@H](C)CC[C@@H]4[C@@H](C)C[C@@H]1[C@@]43C(=O)C2(C)C,EC50,H37Rv,-,-,-,>12.5 µg/mL
CC(O)C(NC(=O)c1cnc(OCc2ccccc2)nc1N)C(=O)O,MIC bound,H37Rv,BACTEC,-,-,>12.5 µg/mL
O=Cc1ccc2c(c1)C(=O)c1nc3ccncc3c(=O)n1-2,MIC,H37Rv,-,-,-,0.5 µg/mL
CC[C@H]1OC(=O)[C@H](C)[C@@H](O[C@H]2C[C@@](C)(OC)[C@@H](O)[C@H](C)O2)[C@H](C)[C@@H](O[C@@H]2O[C@H](C)C[C@H](N(C)C)[C@H]2O)[C@](C)(O)C[C@@H](C)/C(=N\OCOCCOC)[C@H](C)[C@@H](O)[C@]1(C)O,MIC,-,-,-,-,32 µM
CC1(c2ccc(F)cc2)CN(C(=O)CCC(F)(F)F)C1,EC50,H37Rv,fluorescence,-,THP-1,<0.05 µM
O=C1c2cc(OC(F)(F)F)ccc2-n2c1nc1ccccc1c2=O,MIC,H37Rv,-,-,-,0.03 µg/mL
CCOC(=O)Cc1csc(/N=C2/NC(=O)CS2)n1,MIC,H37Rv,-,-,-,>12.5 µg/mL
O=C1c2cc(F)ccc2-n2c1nc1ccccc1c2=O,MIC,H37Rv,-,-,-,0.13 µg/mL
Nc1nc2nc(CCc3ccccc3)cnc2c(=O)[nH]1,inhibition,H37Rv,BACTEC,12.5 µg/mL,-,-2%
N/C(COc1ccc([N+](=O)[O-])cc1)=N/NC(=O)c1ccncc1,MIC,ATCC 35828 (pyrazinamide-resistant),-,-,-,12.5 µg/mL
C[C@@H](O)[C@H]1C(=O)N2C(C(=O)O)=C(S[C@@H]3CN[C@H](CNS(N)(=O)=O)C3)S[C@H]12,MIC,-,-,-,-,0.5–1 µg/mL
CC(C(=O)NN)c1nc2ncccc2[nH]1,MIC,109,-,-,-,125 µg/mL
N#CCCN1CCN(CCC#N)C1=S,inhibition,H37Rv,BACTEC,12.5 µg/mL,-,0%
CC(C)(C)OC(=O)N[C@@H](CO)C(=O)N/N=C/c1cccc([N+](=O)[O-])c1,MIC,H37Rv,resazurin,-,-,>100 µg/mL
COc1c2occc2c(N=Cc2ccncc2)c2ccc(=O)oc12,inhibition,H37Rv,resazurin,6.25 µg/mL,-,23%
CC(C)(O)C1=CC[C@@]2(C)C[C@@H]3O[C@]3(C)CC[C@@H]3O[C@@]3(C)CC[C@H]12,MIC,H37Rv,-,-,-,>128 µg/mL
O=C(Nc1ccc(Cl)c(Cl)c1)N1c2ccccc2Sc2ccccc21,MIC bound,H37Rv,BACTEC,-,-,>12.5 µg/mL
Cn1cccc2nc(CC(=O)NN)nc1-2,MIC,H37Rv,-,-,-,250 µg/mL
CCOc1ccc(S(=O)(=O)[C@H]2CS(=O)(=O)C[C@@H]2NCC(C)C)cc1,MIC,18b,resazurin,-,-,16 µg/mL
CCOC(=O)Cc1csc(/N=C2/NC(=O)/C(=C\c3ccc([N+](=O)[O-])o3)S2)n1,MIC,H37Rv,-,-,-,>12.5 µg/mL
C=C1C[C@]23C[C@@]1(O)CC[C@H]2[C@@]12C=C[C@H](O)[C@@](C)(C(=O)O1)[C@H]2[C@@H]3C(=O)O,MIC,H37Rv,BACTEC,-,-,≥128 µg/mL
O=C(CCC(F)(F)F)N1CC(c2cccc(C(F)(F)F)c2)C1,EC50,H37Rv,fluorescence,-,THP-1,<0.05 µM
C[C@@H](O)[C@H]1C(=O)N2C(C(=O)O)=C(S[C@@H]3CN[C@H](C(=O)N(C)C)C3)S[C@H]12,MIC,-,broth dilution,-,-,8–16 µg/mL
O=C(CCCC(F)(F)F)N1CC(c2ccc(F)cc2)C1,EC50,H37Rv,fluorescence,-,THP-1,0.05–0.25 µM
Cc1ccc(/C=C(\C(N)=S)c2nc3ncccc3[nH]2)c(C)c1,MIC,H37Rv,-,-,-,15.6 µg/mL
CC[C@H]1OC(=O)[C@H](C)C(=O)[C@H](C)[C@@H](O[C@@H]2O[C@H](C)C[C@H](N(C)C)[C@H]2O)[C@](C)(OC)C[C@@H](C)C(=O)[C@H](C)[C@H]2N(NCCCCCCc3ccnc4ccccc34)C(=O)O[C@]12C,MIC,-,-,-,-,4 µM

Lines come from different laboratories, so protocols vary. MIC bound: limit read from a one-dose screen. Two numbers with a dash give a range or band. ECn is the concentration giving n% inhibition of infection, replication or growth. An empty or dashed field is not shown. Percent inhibition refers to the dose given; in toxicity tests it is the harm to the cells.